Pooled drug test results. Numbers come from NIAID ChemDB, via PubChem.

Common to all: target-level tests

ICn is the concentration giving n% inhibition. Fold resistance: result on the changed form divided by that on wild type. Percent inhibition refers to the dose given; in toxicity tests it is the harm to the cells. An empty or dashed field is not shown. Conditions beyond the fields shown may differ between rows. a–b is a range or a potency band.

structure,target,read by,dose,endpoint,organism,mutations,strain or isolate,value
Cc1cc2c(c(O)c1C(=O)O)-c1c(cc3c(c1O)C(=O)c1cc(O)cc(O)c1C3=O)[C@H](O)[C@H]2O,Glucosidase,-,-,IC50,Actinomadura verrucosospora,-,-,69 µg/mL
O=C(Nc1nnc(NC2CCCCCC2)s1)c1ccc([N+](=O)[O-])o1,Polymerase,-,-,IC50,Human cytomegalovirus,-,-,<25 µM
O=c1cc(Cc2ccccc2)[nH]c(=O)[nH]1,Uracil phosphoribosyltransferase,-,-,IC50,Toxoplasma gondii,-,RH,>2000 µM
O=C1/C(=C\c2cc(F)c(F)cc2F)SC(=S)N1NS(=O)(=O)c1ccc(Cl)cc1,NS5B polymerase,-,-,IC50,Hepatitis C virus,-,-,≤30 µM
O=C1N=C2C(C(=O)N=C3SC([N+](=O)[O-])=CN32)C(c2cccc(Br)c2)N1,CysK1,absorbance,100 µM,inhibition,Mycobacterium tuberculosis,-,-,39.9%
CC(=O)N(c1cc(C)on1)S(=O)(=O)c1ccc(N)cc1,DHPS,-,-,IC50,Pneumocystis carinii,-,-,0.02 µM
O=C(/C=C/c1ccccc1)Nc1nnc(NCc2ccncc2)s1,Polymerase,-,-,IC50,Human cytomegalovirus,-,-,<25 µM
CC(C)N(C(=O)c1ccc(Cl)cc1Cl)c1cc(C2=CCN(C(=O)OCc3ccccc3)CC2)sc1C(=O)O,NS3 ATPase,-,-,IC50,Hepatitis C virus,-,-,<5 µM
O=c1[nH]c(=O)n([C@@H]2O[C@H](CO)[C@@H](O)[C@@H]2F)cc1/C=C/Br,Thymidine kinase,-,-,Ki,Varicella zoster virus,-,-,2.75 µM
COc1cc(OC)c(C=C2SC(=O)N(CC(=O)N3CCN(C)CC3)C2=O)c(OC)c1,Falcipain-2,fluorescence,-,IC50,Plasmodium falciparum,-,-,>50 µM
CCCCCCCCCCCNc1nnc(NC(=O)c2ccc([N+](=O)[O-])o2)s1,Polymerase,-,-,IC50,Human cytomegalovirus,-,-,<25 µM
Nc1nc(N)c2c(n1)CCC(Cc1cccc(C(F)(F)F)c1)C2,Dihydrofolate reductase,-,-,IC50,Cryptosporidium parvum,-,-,3.84 µM
COc1ccc(OC)c(COC(=O)Nc2ccsc2-c2nc(C(=O)O)c(O)c(=O)[nH]2)c1,HCV polymerase,-,-,IC50,Hepatitis C virus,-,-,<25 µM
CCCCC(N)B(O)O,Aminopeptidase,-,-,IC50,Cryptosporidium parvum,-,-,<0.001 µM
COc1ccc(CNc2nnc(NC(=O)c3ccc4c(c3)C(=O)OC4=O)s2)cc1OC,Polymerase,-,-,IC50,Human cytomegalovirus,-,-,<25 µM
COc1cc(O)c2c(c1)C(=O)c1c(O)c3c(c(OC)c1C2=O)[C@H](O)[C@@H](O)c1cc(C)c(C(=O)N[C@H](C)C(=O)O)c(O)c1-3,Glucosidase,-,-,IC50,Actinomadura verrucosospora,-,-,62 µg/mL
COc1cc(OC)c(C=C2SC(=O)N(CC(=O)O)C2=O)c(OC)c1,Falcipain-2,fluorescence,-,IC50,Plasmodium falciparum,-,-,>50 µM
Nc1ccc(S(=O)(=O)Nc2ccc(Cl)nn2)cc1,DHPS,-,-,IC50,Pneumocystis carinii,-,-,>0.05 µM
CCc1c[nH]c(=S)[nH]c1=O,Uracil phosphoribosyltransferase,-,2000 µM,inhibition,Toxoplasma gondii,-,RH,<10%
CO[P@](=O)(c1cc(C)cc(/C=C/C#N)c1)c1c(C(N)=O)[nH]c2ccc(Cl)c(F)c12,Reverse transcriptase,-,-,IC50,HIV,E138K,-,4.67 µM
COc1cc(OC)c(C=C2SC(=O)N(Cc3ccc(F)cc3)C2=O)c(OC)c1,Falcipain-2,fluorescence,-,IC50,Plasmodium falciparum,-,-,>50 µM
CCCCCCCC(C(=O)O)P(=O)(O)O,DNA polymerase,-,-,IC50,Duck hepatitis B virus,-,-,>100 µM
CCOc1ccc2ccccc2c1C(=O)Nc1nnc(NCCc2ccccc2)s1,Polymerase,-,-,IC50,Human cytomegalovirus,-,-,>25 µM
O=C(O)C(CCCC1CCCCC1)P(=O)(O)O,DNA polymerase,-,-,IC50,Duck hepatitis B virus,-,-,>100 µM
CCOC(=O)c1ccccc1-c1cc(NS(=O)(=O)c2ccccc2C)c(C(=O)O)s1,NS3 ATPase,-,-,IC50,Hepatitis C virus,-,-,5–20 µM
COc1ccc(CC2CCc3nc(N)nc(N)c3C2)cc1,Dihydrofolate reductase,-,-,IC50,Cryptosporidium parvum,-,-,0.53 µM
O=CNc1ccc(S(=O)(=O)c2ccc(NC=O)cc2)cc1,DHPS,-,-,IC50,Pneumocystis carinii,-,-,>10 µM
CN(C)c1ccc(C2NC(=S)N=C3C2C(=O)N=C2SC([N+](=O)[O-])=CN23)cc1,CysK1,absorbance,100 µM,inhibition,Mycobacterium tuberculosis,-,-,0%
Cc1cccc(C)c1OCC(=O)N[C@@H](Cc1ccccc1)[C@H](O)CN1CC[C@@H](Sc2ccncc2)C[C@H]1C(=O)NC(C)(C)C,Protease,fluorescence,-,Ki,HIV,PR-V32I M46I A71V I84A,-,0.02477 µM
O=C(O)Cc1ccc(O)cc1,Rv1284,-,-,Ki,Mycobacterium tuberculosis,-,Rv1284,11.4 µM
OB(O)C1CCCN1,Aminopeptidase,-,-,IC50,Cryptosporidium parvum,-,-,>0.001 µM
CCc1cn([C@H]2C[C@H](O)[C@@H](CO)O2)c(=O)[nH]c1=O,Thymidine kinase,-,-,Ki,Varicella zoster virus,-,-,0.47 µM
CC(C)[C@H](NC(=O)c1ccc2ccccc2n1)C(=O)N[C@@H](Cc1ccccc1)[C@H](O)CN1CC[C@@H](SCc2cccnc2)C[C@H]1C(=O)NC(C)(C)C,Protease,fluorescence,-,fold resistance,HIV,PR-V32I A71V,-,26.5
CC(N)CB(O)O,Aminopeptidase,-,-,IC50,Cryptosporidium parvum,-,-,<0.001 µM
CCO[C@@]12CC3=COC=CC(OC(C)=O)C3N1C(=O)[C@]1(S)CC3=COC=CC(OC(C)=O)C3N1C2=O,RNA polymerase,-,-,IC50,Coxsackie virus,-,TYPE A21,5.8 µg/mL
CCC(CC)Nc1cc(C(=O)O)ccc1N1C(=O)CCC1(CO)CCO,Neuraminidase,-,-,IC50,Influenza A virus,-,Subtype N2,59 µM
Cc1ccc(S(=O)(=O)NN2C(=O)/C(=C\c3ccc(Cl)c(Cl)c3)SC2=S)cc1,NS5B polymerase,-,-,IC50,Hepatitis C virus,-,-,≤30 µM
NC(Cc1ccccc1)B(O)O,Aminopeptidase,-,-,IC50,Cryptosporidium parvum,-,-,<0.001 µM
CSS[C@@]12CC3=COC=CC(OC(C)=O)C3N1C(=O)[C@]1(SSC)CC3=COC=CC(OC(C)=O)C3N1C2=O,RNA polymerase,-,-,IC50,Coxsackie virus,-,TYPE A21,0.07 µg/mL
O=C1N=C2SC([N+](=O)[O-])=CN2C2=NC(=S)NC(c3c(Cl)cccc3Cl)C12,CysK1,absorbance,100 µM,inhibition,Mycobacterium tuberculosis,-,-,0%
O=c1[nH]cc(C(F)(F)F)c(=O)[nH]1,Uracil phosphoribosyltransferase,-,-,IC50,Toxoplasma gondii,-,RH,>2000 µM
COc1cc(CNc2ccc3nc(N)nc(N)c3c2Cl)cc(OC)c1OC,Dihydrofolate reductase,-,-,IC50,Cryptosporidium parvum,-,-,4.61 µM
CC(C)(C)c1ccc(C(=O)Nc2ocnc2-c2nc(C(=O)O)c(O)c(=O)[nH]2)cc1,HCV polymerase,-,-,IC50,Hepatitis C virus,-,-,<100 µM
O=C1N=C2C(C(=O)N=C3SC([N+](=O)[O-])=CN32)C(c2ccccc2C(F)(F)F)N1,CysK1,absorbance,100 µM,inhibition,Mycobacterium tuberculosis,-,-,86.2%
CC(C)(C)OC(=O)CCNc1nnc(NC(=O)c2ccc(Cl)c(Cl)c2)s1,Polymerase,-,-,IC50,Human cytomegalovirus,-,-,>25 µM
CCCC(=O)N(Cc1ccc(F)cc1F)c1cc(-c2ccccc2)sc1C(=O)O,NS3 ATPase,-,-,IC50,Hepatitis C virus,-,-,<5 µM
O=C1N=C2SC([N+](=O)[O-])=CN2C2=NC(=S)NC(c3ccc(F)cc3)C12,CysK1,absorbance,100 µM,inhibition,Mycobacterium tuberculosis,-,-,40%
O=C(O)C(CCCc1ccccc1)P(=O)(O)O,DNA polymerase,-,-,IC50,Duck hepatitis B virus,-,-,>100 µM
CC#Cc1cn([C@H]2C[C@H](O)[C@@H](CO)O2)c(=O)[nH]c1=O,Thymidine kinase,-,-,Ki,Varicella zoster virus,-,-,2.3 µM
CCCCCCCCCCCC(C(=O)O)P(=O)(O)O,DNA polymerase,-,-,IC50,Duck hepatitis B virus,-,-,>100 µM
COc1cccc(/C=C2/SC(=S)N(NS(=O)(=O)c3ccccc3)C2=O)c1,NS5B polymerase,-,-,IC50,Hepatitis C virus,-,-,≤30 µM
Nc1ncnc2c1ncn2[C@@H]1O[C@H](COC(=O)c2ccc(S(=O)(=O)F)cc2)[C@@H](O)[C@H]1O,NTPase/helicase,-,300 µM,inhibition,Dengue virus,-,-,44%
Nc1nc(N)c2nc(CN3c4ccccc4Cc4ccccc43)cnc2n1,Dihydrofolate reductase,-,-,IC50,Cryptosporidium parvum,-,-,>10 µM
COc1cc(OC)c(C=C2SC(=O)N(Cc3ccccc3)C2=O)c(OC)c1,Falcipain-2,fluorescence,-,IC50,Plasmodium falciparum,-,-,36.24 µM
C[C@@H](NC(=O)Nc1ccsc1-c1nc(C(=O)O)c(O)c(=O)[nH]1)c1ccccc1,HCV polymerase,-,-,IC50,Hepatitis C virus,-,-,<25 µM
CC(=O)OC1C=COC=C2C[C@@]34S[C@]5(CC6=COC=CC(OC(C)=O)C6N5C3=O)C(=O)N4C21,RNA polymerase,-,-,IC50,Coxsackie virus,-,TYPE A21,3.8 µg/mL
CCC(CC)[C@H](NC(C)=O)[C@@H]1[C@H](O)[C@@H](C(=O)O)C[C@H]1N=C(N)N,Influenza virus neuraminidase,-,-,IC50,Influenza B virus,-,-,0.00136 µM
O=C(Nc1ccsc1-c1nc(C(=O)O)c(O)c(=O)[nH]1)c1ccccc1Oc1ccccc1,HCV polymerase,-,-,IC50,Hepatitis C virus,-,-,<25 µM
CCC(CC)Nc1cc(C(=O)O)ccc1N1C(=O)CCC1(CO)CN=[N+]=[N-],Neuraminidase,-,-,IC50,Influenza B virus,-,B/LEE,>670 µM
O=c1[nH]cc(O)c(=O)[nH]1,Uracil phosphoribosyltransferase,-,-,IC50,Toxoplasma gondii,-,RH,>2000 µM
COc1ccc(NS(=O)(=O)c2ccc(N)cc2)nn1,DHPS,-,-,Ki,Pneumocystis carinii,-,-,0.0125 µM
O=C1NC(=S)S/C1=C\c1ccc(Cl)cc1,NS5B polymerase,-,-,IC50,Hepatitis C virus,-,-,>30 µM
NNc1ccc(C(=O)NS(=O)(=O)c2ccc(N)cc2)cc1,DHPS,-,-,IC50,Pneumocystis carinii,-,-,>10 µM
CCc1cn([C@@H]2O[C@H](CO)[C@@H](O)[C@@H]2O)c(=O)[nH]c1=O,Thymidine kinase,-,-,Ki,Varicella zoster virus,-,-,4.99 µM
NN1C(=O)/C(=C\c2ccc(Cl)cc2)SC1=S,NS5B polymerase,-,-,IC50,Hepatitis C virus,-,-,≤30 µM
Cc1nc(N)c2ncn([C@@H]3O[C@H](COC(=O)c4ccc(S(=O)(=O)F)cc4)[C@@H](O)[C@H]3O)c2n1,NTPase/helicase,-,300 µM,inhibition,West Nile virus,-,-,34%
O=C(/C=C/c1ccccc1Cl)Nc1nnc(NCCc2ccccc2)s1,Polymerase,-,-,IC50,Human cytomegalovirus,-,-,>25 µM
Cc1c[nH]c(=O)[nH]c1=O,Uracil phosphoribosyltransferase,-,2000 µM,inhibition,Toxoplasma gondii,-,RH,<5%
CN[C@@H]1[C@H](O[C@@H]2OC[C@@H](O)[C@H](O)[C@H]2O)[C@@H](O)[C@H](O[C@H]2c3cc(C)c(C(=O)N[C@H](C)C(=O)O)c(O)c3-c3c(cc4c(c3O)C(=O)c3cc(OC)cc(O)c3C4=O)[C@@H]2O)O[C@@H]1C,Glucosidase,-,-,IC50,Actinomadura verrucosospora,-,-,>100 µg/mL
CN1C(=O)[C@]23CC4=CC=C[C@H](O)[C@H]4N2C(=O)[C@@]1(CO)S3,RNA polymerase,-,-,IC50,Coxsackie virus,-,TYPE A21,0.002 µg/mL
COc1cc(Cc2sc3nc(N)nc(N)c3c2C)c(Br)c(OC)c1OC,Dihydrofolate reductase,-,-,IC50,Cryptosporidium parvum,-,-,10.2 µM
CN(C)c1ccc(C2NC(=O)N=C3C2C(=O)N=C2SC([N+](=O)[O-])=CN23)cc1,CysK1,absorbance,100 µM,inhibition,Mycobacterium tuberculosis,-,-,7.3%
O=C(O)c1sc(-c2ccccc2)cc1NS(=O)(=O)c1ccccc1OC(F)(F)F,NS3 ATPase,-,-,IC50,Hepatitis C virus,-,-,>20 µM
O=C(Nc1nnc(NCC2CCCO2)s1)c1cc2ccccc2s1,Polymerase,-,-,IC50,Human cytomegalovirus,-,-,>25 µM
O=C(CN1C(=O)SC(=Cc2ccc(C(F)(F)F)cc2)C1=O)N1CCN(c2ccccc2)CC1,Falcipain-2,fluorescence,-,IC50,Plasmodium falciparum,-,-,18.04 µM
Nc1ccc(S(=O)(=O)Nc2nccs2)cc1,DHPS,-,-,IC50,Pneumocystis carinii,-,-,0.013 µM

The last 4 rows once more:

structure,target,read by,dose,endpoint,organism,mutations,strain or isolate,value
O=C(O)c1sc(-c2ccccc2)cc1NS(=O)(=O)c1ccccc1OC(F)(F)F,NS3 ATPase,-,-,IC50,Hepatitis C virus,-,-,>20 µM
O=C(Nc1nnc(NCC2CCCO2)s1)c1cc2ccccc2s1,Polymerase,-,-,IC50,Human cytomegalovirus,-,-,>25 µM
O=C(CN1C(=O)SC(=Cc2ccc(C(F)(F)F)cc2)C1=O)N1CCN(c2ccccc2)CC1,Falcipain-2,fluorescence,-,IC50,Plasmodium falciparum,-,-,18.04 µM
Nc1ccc(S(=O)(=O)Nc2nccs2)cc1,DHPS,-,-,IC50,Pneumocystis carinii,-,-,0.013 µM